Reference: the supplement of paper PMC9931576
Human monoclonal antibodies against the spike receptor-binding domain (heavy:light variable regions). IC50 against pseudoviruses bearing the spike of naturally observed variants; lower = stronger; >10 µg/ml means not reached at the top dose. No active / inactive call. The stated detection limit is 0.0005 µg/ml; values near or below 0.001 µg/ml lie at the floor of the assay.

B1: BD55-6651 (protein)
chain 1: EVQLVESGGGLVQPGGSLRLSCAASGFSFSSFYIHWVRQAPGKGLEYVSAISSDGGNAYYANSVKDRFTISRDNSKNTVYLQLGSLRPEDTAVYFCARDLEYSAWRGSGMGVWGLGTTVTVSS
chain 2: QSVLTQPPSVSGAPGQRVTISCTGSSSNLGAGYGVHWYQQLRGTAPKLLIYGNSNRPSGVPDRFSGSKSGTSASLAITGLQAEDEADYYCQSYDSSLSGHVIFGGGTKVTVL
B2: BD55-6657 (protein)
chain 1: QEQLVESGGGVVQPGRSLRLSCSASGFTFNDFGMHWVRQAPGKGLEWVAFISFDGGAKNYADSVKGRFTISRDNSRNALSLQINSVRIEDTAVYYCAKEEGIMGYYYYYMDVWGKGTAVTVSS
chain 2: QTVVTQEPSFSVSPGGTVTLTCGLSSGSVSTYHYPSWYQQTPGQAPRPLIYRTNTRSSGVPDRFSGSILGNKAALTITGAQADDESDYYCALCIGSGIFVFGSGTKVTVL
B3: BD55-6671 (protein)
chain 1: QVQLVESGGGVVQPGRSLRVSCVASGFTFRNYGMHWVRQTPGKGLEWVAVISYDGSSKYYADSVKGRFTISRDNSKDTLYLQMSSLRGEDTAVYYCAKVEDALRYFERPGPFDYWGQGTLVTVSS
chain 2: EVVLTQSPDFQSVTPKETVTITCRASQNIGSGLHWYQQKPDQSPKLLIKYTSQSFSGVPSRFSGSGSGTDFTLTIKSLEAEDAATYYCHQSSIGYTFGQGTKLEIK
B4: BD55-1297 (protein)
chain 1: DVQLVESGGGLVQPGGSLRLSCAASGFTFRNYDMHWVRQISGETLEWVSAIGTSGDTYYADSVKGRFSVSRENAKNSFYLQMNSLTAGDTAMYYCTRGDLSSSSNWYFDLWGRGTLVAVSS
chain 2: DIQMTQSPSSLSASVGDRVTITCRASQSIRNYLNWYQQKPGKAPKLLIYAASSLQSGVPSRFSGSGSGTEFTLTITTLQPEDFATYYCQQNYVMPPITFGQGTRLDMK
B5: BD55-6677 (protein)
chain 1: QVQLLESGPGLVKPSQTLSLTCTVSGDAVNSDRHYWAWIRQPAGKGLEWVGHIYNTGSANYNPSLNRRATISVAASKTQFSLRLTSVTAADTAIYFCARGNMVVAGPYYHFGMDVWGHGTPVTVSS
chain 2: SYDLTQPPSVSVSPGQTATITCSGDVLPKQYGFWYQLKPGQAPVLVISKDSERPSWIPERFSGSISGSTVTLTISGVQAEDEADYYCQSTDFSGSLLFGGGTKLTVL
B6: BD55-6679 (protein)
chain 1: QVQLQESGPGLVKPSQTLSLTCTVSGGSIGRGGYFWSWVRQHPGKGLQWIGHIYFSGNTYNNPSLKSRSTLSLDTSKNQFSLTLTSVTVADTAVYYCARVGFYASGTYYFDYWGQGTLVTVSS
chain 2: SSELTQDPAVSVALGQTVRIACQGASLRTYFASWYQQKPGQAPLLVFYGKNNRPSGIPDRFSGSSSGNTAFLTITGAQAEDEADYYCNSRDSSGNYLVFGGGTKLTVL
B7: BD55-1307 (protein)
chain 1: QVQLVQSGAEVKKPGSSVKVSCTASGGTFSSYSINWVRQAPGQGLEWMGRIIPMLGVANYAQKFQGRVTITADKSTSTACMELTSLRSEDTAVYYCAREGPGYGYNSGSTEYFQRWGQGTLVTVSS
chain 2: QSVLTQPPSVSGAPGQRVTISCTGSSSNIGAGYDVHWYQQLPGTAPKLLIYGNSNRPSGVPDRFSGSKSGTSASLAITGLQAEDEADYYCQSYDSSLSDFVFGTGTKVTVL
B8: BD55-6687 (protein)
chain 1: QVQLVESGGGVVQPGRSLRLSCAASGFTFRYHGMHWVRQAPGKGLEWVAVIWNDGTNKYYADSVKGRFTISRDNSKNTLYLQMYSLRAEDTAVYYCAREAPEGSGSFFTLRLDYWGQGTHVTVSS
chain 2: DIQMTQSPSSLSASVGDRVTITCRASQSISGNLNWYQQKAGRAPKLLIYAASSLESGVPSGFSGSGSGTDFTLTISSLQPEDFATYFCQQSYSSPYTFGQGTKLEIK
B9: BD55-6689 (protein)
chain 1: QVQLVQSGAEVRRPGASVRLSCKSSGYTFTTYYIHWVRRAPGQGLEWVGIINPSDGGTNFAQKFQGRVTMTRDTSTNTVYMELSSLKSEDTAVYYCAKALIVAGAPIYSYYCGVDVWGQGTAVTVSS
chain 2: SYELTQPPSVSVSPGQTAIITCSGDALPKQYAYWYHQKPGQAPVLLIYKDGERPSGIPERFFGSSSGTTVTLTISGAQAEDEADYYCQSTDSSGTYVVFGGGTKLTVL
B10: BD55-6694 (protein)
chain 1: DVQLVQSGAEVKKPGESLKISCKGSENNFANHWIGWVRQRPGKGLEWMGVIYPGDSDTRYGPSFQGQVTMSVDKSISTAYLQWSSLKASDTAMYFCASRNWGYYSYGMDVWGQGTTVIVSS
chain 2: DIQMTQSPSSVSASVGDRVTITCRASQGISNWLAWYQQKPGKAPNLLIYSASTLQSGVPSRFSGSGSGTDFTLTIDSLQPEDFATYYCQQASTFPPTFGQGTRLEI
B11: BD55-6695 (protein)
chain 1: QVQLVQSGAEVKKPGASVKISCKASGYTFTNYYIHWVRQAPGQGLEWMGIAHPSGARINYAQKLQGRVTMTRDTATSTAYMELNSLTSEDTAIYYCARDRLLIGTVGPEWFDPWGQGTLIIVSS
chain 2: DIQLTQSPSSLSASVGDRVTITCRASQFINTYLNWYQQKSGRAPRVLIYAASTLQSGVPSRFSGSGSGTDFSLTISSLQPEDVAIYYCQQSYSTPPWTFGQGTKVEI
B12: BD55-6699 (protein)
chain 1: QVQLVQSGGEVKKPGASVKVSCKASGYTFSNYGISWMRQAPGQGLEWMGWISGYNGKTNYAQKFQGKVTMTTDTSTSTAYMELRSLRSDDTAVYYCARDPVNYEYSGYDDLLSDIFDYWGQGTLVTVSS
chain 2: DIQMTQSPSSLSASVGDRVTITCRASQGIRNDLAWYQQKPGKAPERLIYAASSLQGGVPSRFSGSGSGTAFTLTISSLQPEDSATYYCLQHNTIPRTFGQGTKLEIK

Assays:
Assay in all cases: pseudovirus neutralization IC50; higher = weaker neutralization
[1] = target: SARS-CoV-2 Omicron BA.1 spike pseudovirus
Protocol: (§1)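 Single-round VSV luciferase pseudovirus mixed with antibody dilutions for 1 h and put on Huh-7 cells for about a day; IC50 from the dose curve.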

[2] = target: SARS-CoV-2 Omicron BA.2 spike pseudovirus
Protocol: as §1

[3] = target: SARS-CoV-2 Omicron BA.2.75 spike pseudovirus
Protocol: as §1

[4] = target: SARS-CoV-2 Omicron BA.5 spike pseudovirus
Protocol: as §1

[5] = target: SARS-CoV-2 Omicron BQ.1.1 spike pseudovirus
Protocol: as §1

[6] = target: SARS-CoV-2 Omicron XBB spike pseudovirus
Protocol: as §1

[7] = target: SARS-CoV-2 early D614G spike pseudovirus
Protocol: as §1

Binder	pseudovirus neutralization IC50 [1] [µg/mL]	pseudovirus neutralization IC50 [2] [µg/mL]	pseudovirus neutralization IC50 [3] [µg/mL]	pseudovirus neutralization IC50 [4] [µg/mL]	pseudovirus neutralization IC50 [5] [µg/mL]	pseudovirus neutralization IC50 [6] [µg/mL]	pseudovirus neutralization IC50 [7] [µg/mL]
B1	> 10	> 10	> 10	> 10	> 10	> 10	0.0338
B2	> 10	> 10	> 10	> 10	> 10	> 10	> 10
B3	> 10	> 10	> 10	> 10	> 10	> 10	0.137
B4	> 10	> 10	> 10	> 10	> 10	> 10	1.95
B5	0.139	0.179	0.35	0.578	> 10	> 10	0.00607
B6	> 10	> 10	> 10	> 10	> 10	> 10	> 10
B7	0.0772	0.101	0.0909	> 10	> 10	> 10	0.109
B8	0.0853	> 10	> 10	> 10	> 10	> 10	0.0237
B9	> 10	> 10	> 10	> 10	> 10	> 10	0.0885
B10	> 10	> 10	> 10	> 10	> 10	> 10	> 10
B11	> 10	> 10	> 10	> 10	> 10	> 10	> 10
B12	3.16	> 10	> 10	> 10	> 10	> 10	0.143
